Results of unrelated studies side by side (data: NIAID ChemDB).

Shared fields: host cell toxicity; cells: HEK 293; read-out: CC50

Blank or dashed fields: not listed here. Lines come from different laboratories, so protocols vary. CCn: concentration that lowers growth or viability of the cells by n%.

SMILES,read by,result
CC(C)=CC[C@H]1C[C@@]2(C[C@H]3CCC(C)(C)C=C3C)C(=O)[C@](C(=O)c3ccccc3)(C(=O)C3=C2OC(C)(C)CC3)C1(C)C,sulforhodamine / absorbance,>50 µM
CN[C@@H](CC1=CN=c2c(O)c3c(c(O)c21)=NCCS3(=O)=O)C(=O)O.O=C(O)C(F)(F)F,resazurin / fluorescence,>80 µM
Cc1cc(N)c2nc(N)[nH]c2c1,,>100 µM
Nc1ccn([C@@H]2CS[C@H](CO)O2)c(=O)n1,WST,>100 µM
CO[C@H]1O[C@@H]2O[C@@]3(C)CC[C@H]4[C@H](C)CC[C@@H]([C@H]1C)[C@@]24OO3,ATP / luminescence,>26 µM
Nc1nc(NC2CC2)c2ncn([C@H]3C=C[C@@H](CO)C3)c2n1,WST,>100 µM
CC/C=C\C[C@H]1C(=O)CC[C@@H]1CC(=O)O,ATP,>26 µM
N=C(N)c1ccc2cc(OCCc3ccc(N)cc3)ccc2c1,,48 µM
CC(=O)Oc1ccccc1C(=O)OC1O[C@@H]2OC3(C)CCC4[C@H](C)CCC([C@H]1C)[C@]42OO3,ATP / luminescence,>26 µM
O=C1c2c(O)cc(O)cc2O[C@@H](c2ccc(O)cc2)[C@@H]1c1c(O)cc(O)c2c(=O)cc(-c3ccc(O)c(O)c3)oc12,sulforhodamine / absorbance,>50 µM
CC(C)CNCCO[C@H]1O[C@@H]2OC3(C)CCC4[C@H](C)CCC([C@H]1C)[C@]42OO3,ATP / luminescence,>16 µM
Nc1nc2ccc(N(Cc3cccc(Oc4ccccc4)c3)Cc3cccc(Oc4ccccc4)c3)cc2[nH]1,,4 µM
CC1(C)CC[C@]2(C(=O)O)CC[C@]3(C)C(=CC[C@@H]4[C@@]5(C)C[C@@H](O)[C@H](O)[C@@](C)(CO)[C@@H]5CC[C@]43C)[C@@H]2C1,ATP,>26 µM
N=C(N)c1ccc2cc(NC(=O)Nc3ccc(N)cc3)ccc2c1,,>100 µM
C/C=C/c1ccc2c(c1)[C@H](C)[C@@H](c1ccc(O)cc1)O2,sulforhodamine / absorbance,41.7 µM
COc1cc(-c2ccccc2)c(O)c(OC)c1O,sulforhodamine / absorbance,>50 µM
C[C@@H]1CCC2[C@@H](C)[C@@H](OCCN3CCNCC3)O[C@@H]3OC4(C)CCC1[C@@]23OO4,ATP / luminescence,>28.9 µM
NCCC1=c2c(O)c3c(c(O)c2N=C1)=NC=CS3(=O)=O.O=C(O)C(F)(F)F,resazurin / fluorescence,3.9 µM
O=C(/C=C/C=C/c1ccc(Br)cc1)[Se]c1ccccc1,WST,>100 µM
C=C/C(C)=C/C[C@H]1C(=C)CCC2[C@]1(C)CCC[C@]2(C)C(=O)O,,205.6 µg/mL
Cn1cc2c3c1C(=O)C(NCCc1ccc(O)cc1)=CC3=NCC2,resazurin,1.1 µM
O=C(/C=C/C=C/c1ccc(O)c(O)c1)[Se]c1ccccc1,WST,>100 µM
COc1cc(O)cc2oc3cc(O)c(O)cc3c(=O)c12,sulforhodamine / absorbance,>50 µM
O=C(O)C(=O)/C=C(\O)c1cccn1Cc1ccc(F)cc1,,>100 µM
CC1(C)CC[C@]2(C(=O)O)CC[C@]3(C)C(=CC[C@@H]4[C@@]5(C)C[C@@H](O)[C@H](O)C(C)(C)[C@@H]5CC[C@]43C)[C@@H]2C1,ATP,>26 µM
O=C(/C=C/c1ccccc1)[Se]c1ccccc1,WST,>100 µM
Cn1cc2c3c1C(=O)C(N/C=C/c1ccc(O)cc1)=CC3=[N+](C)CC2,resazurin,2 µM
O=c1c2cc(O)ccc2oc2cc(O)cc(O)c12,sulforhodamine / absorbance,>50 µM
COc1cc(/C=C/C(=O)[Se]c2ccccc2)ccc1O,WST,>100 µM

2 of the rows above, restated:

SMILES	read by	result
CC1(C)CC[C@]2(C(=O)O)CC[C@]3(C)C(=CC[C@@H]4[C@@]5(C)C[C@@H](O)[C@H](O)C(C)(C)[C@@H]5CC[C@]43C)[C@@H]2C1	ATP	>26 µM
CC(C)=CC[C@H]1C[C@@]2(C[C@H]3CCC(C)(C)C=C3C)C(=O)[C@](C(=O)c3ccccc3)(C(=O)C3=C2OC(C)(C)CC3)C1(C)C	sulforhodamine / absorbance	>50 µM